# The supplement of paper PMC3578754
# Fold change is the IC50 on the isolate divided by the IC50 on a reference virus; 1 = unchanged, higher = more resistant. Changes are given against the subtype B consensus. No active / inactive call. The values were gathered from many studies (numbered anew) with different assays, which the source does not name. Most viruses are clinical isolates; some are laboratory strains or clones with known resistance changes. Isolates with mixed residues are left out; stretches that were not sequenced show no change. Round top values that many isolates share are read here as limits; other very high values and 0.1 may be limits too. The protease changes I3V and N37S, insertions and deletions cannot be read from the source.
# Experiments:
# Test in all cases: fold change of IC50 against reference virus; higher = more resistant; Cell-culture drug susceptibility tests of virus bearing the protease of each isolate, gathered from many studies.
# indinavir = compound: CC(C)(C)NC(=O)[C@@H]1CN(Cc2cccnc2)CCN1C[C@@H](O)C[C@@H](Cc1ccccc1)C(=O)N[C@H]1c2ccccc2C[C@H]1O [indinavir]
# saquinavir = compound: CC(C)(C)NC(=O)[C@@H]1C[C@@H]2CCCC[C@@H]2CN1C[C@@H](O)[C@H](Cc1ccccc1)NC(=O)[C@H](CC(N)=O)NC(=O)c1ccc2ccccc2n1 [saquinavir]
# ritonavir = compound: CC(C)c1nc(CN(C)C(=O)N[C@H](C(=O)N[C@@H](Cc2ccccc2)C[C@H](O)[C@H](Cc2ccccc2)NC(=O)OCc2cncs2)C(C)C)cs1 [ritonavir]
# nelfinavir = compound: Cc1c(O)cccc1C(=O)N[C@@H](CSc1ccccc1)[C@H](O)CN1C[C@H]2CCCC[C@H]2C[C@H]1C(=O)NC(C)(C)C [nelfinavir]
# lopinavir = compound: Cc1cccc(C)c1OCC(=O)N[C@@H](Cc1ccccc1)[C@@H](O)C[C@H](Cc1ccccc1)NC(=O)[C@H](C(C)C)N1CCCNC1=O [lopinavir]
Test System,fold change of IC50 against reference virus (indinavir),fold change of IC50 against reference virus (saquinavir),fold change of IC50 against reference virus (ritonavir),fold change of IC50 against reference virus (nelfinavir),fold change of IC50 against reference virus (lopinavir)
"HIV-1 isolate 9 (protease changes: I13A K14R K20I M36I R41K L63P H69K L89M, study 114)",0.5,0.6,0.5,0.6,0.6
"HIV-1 isolate 25 (protease changes: I13V K14R I15V K20I M36I R41K I64M H69K L89M, study 114)",0.7,0.7,0.8,1.1,0.8
"HIV-1 isolate 43 (protease changes: I13V I15V K20I M36I R41K R57K C67S H69K V82I L89M, study 114)",0.4,0.8,1.1,0.7,0.6
"HIV-1 isolate 93 (protease changes: L10I I13V K20R L33F E35D M36I N37D M46L I54V I62V L63P G68E A71T I72V V82A L90M I93L, study 15)",11,10,≥ 800,29,48
"HIV-1 isolate 99 (protease changes: L10I I15V G16E K20R E35D M36I R41K I54V R57K Q61D A71V I72R V82A L89I L90M Q92K, study 8)",156,52,261,205,99
"HIV-1 isolate 100 (protease changes: L10I G48V I54V L63P A71V I72M V77I V82A L90M I93L, study 116)",26,–,74,34,20
"HIV-1 isolate 101 (protease changes: L10F, study 30)",1.5,1.3,1.1,1.3,1.6
"HIV-1 isolate 124 (protease changes: I62V L63P V77I I93L, study 15)",1.6,–,1.6,3,1.1
"HIV-1 isolate 156 (protease changes: L10F M46I I47V I50V, study 30)",2.4,2,6.5,4.1,31
"HIV-1 isolate 167 (protease changes: L10I M46I Q58E Q61N L63P I64V G73T V82A L90M I93L, study 116)",25,4,32,31,14
"HIV-1 isolate 176 (protease changes: I54V L63P V77I V82T I93L, study 7)",2.3,0.6,6.5,2.3,3.3
"HIV-1 isolate 177 (protease changes: L10I M46I I54V A71V V82A, study 8)",6.8,0.8,33.7,17.2,24.6
"HIV-1 isolate 179 (protease changes: T12S K43R L63P, study 7)",0.5,0.4,0.5,0.6,0.5
"HIV-1 isolate 209 (protease changes: T12S K14R I15V L19I M36V R41K L63P H69K K70R L89M I93L, study 114)",1.4,1,1.4,1.5,0.9
"HIV-1 isolate 226 (protease changes: L10I G48V I54V L63P A71V I72M V77I V82A L90M I93L, study 109)",19,92,34,27,16
"HIV-1 isolate 227 (protease changes: L10F M46I I54V L63P H69K A71V V82A L90M I93L, study 109)",9,2.7,22,18,22
"HIV-1 isolate 242 (protease changes: R41K, study 109)",0.6,0.7,0.6,0.5,0.6
"HIV-1 isolate 252 (protease changes: E34Q R41K I62V L63P H69Y A71V G73T V82I I84V L90M I93L, study 15)",7.5,47.7,48.7,17.6,6.3
"HIV-1 isolate 257 (protease changes: L19I M36I R41K R57K L63S, study 114)",0.8,0.6,1.2,1,0.7
"HIV-1 isolate 306 (protease changes: L33F E34Q I54V Q58E L63P A71V V77I V82A L90M I93L, study 7)",4.1,1.8,59.5,9,2.9
"HIV-1 isolate 319 (protease changes: I13V G17E K20I E35D M36I R41K C67M G68W H69K L89M, study 114)",0.6,1,0.9,0.7,0.7
"HIV-1 isolate 325 (protease changes: L63P V77I I93L, study 7)",1.4,0.9,1.2,1.9,0.9

Test System,fold change of IC50 against reference virus (indinavir),fold change of IC50 against reference virus (saquinavir),fold change of IC50 against reference virus (ritonavir),fold change of IC50 against reference virus (nelfinavir),fold change of IC50 against reference virus (lopinavir)
"HIV-1 isolate 335 (protease changes: L10I E35D M36I R41K L63A C67D H69K L89M, study 114)",0.5,0.6,0.8,0.6,0.6
"HIV-1 isolate 361 (protease changes: T12P L19I E35D I62V L63P K70N I93L, study 15)",0.8,0.5,0.6,1.1,0.6
"HIV-1 isolate 362 (protease changes: L10V K20R E35D M36I K43T I54V I62V L63P I64V V82A L90M I93L, study 116)",14,5.9,77,39,18
"HIV-1 isolate 363 (protease changes: L10I T12P K14R G16E K20T M36I P39S I54V I62V L63T G68D A71V V82A I93L, study 109)",2.1,0.6,11,3.4,6.5
"HIV-1 isolate 364 (protease changes: L10V L33F M46I I54M L63P A71I L90M, study 15)",13,15,24,24,17
"HIV-1 isolate 370 (protease changes: L10I E35D I54V L63A A71V V82A I85V I93L, study 8)",7.1,0.9,21.6,7.2,2.3
"HIV-1 isolate 375 (protease changes: L10I K20I M46I L63Q I64V I72T G73C T74S V77I L90M I93L, study 65)",22.7,11.8,4.1,87.2,2.7
"HIV-1 isolate 386 (protease changes: L10I G48V I54V L63P A71V I72M V77I V82A L90M I93L, study 109)",24,143,42,23,21
"HIV-1 isolate 389 (protease changes: K20R L23I N37T L63P T74S V77I V82I I93L, study 145)",0.9,1.3,1.7,6.7,0.8
"HIV-1 isolate 395 (protease changes: T12N, study 109)",0.3,0.2,0.3,0.4,0.3
"HIV-1 isolate 474 (protease changes: L10F L33F N37D M46I I54V L63P A71V T74P I84V L90M I93L, study 109)",29,96,63,101,67
"HIV-1 isolate 483 (protease changes: L10I I13V K14R K20R L33F E35D M36I R41K F53L I54V D60E Q61G I62V L63P A71V G73S V82A L90M, study 109)",55,226,261,186,121
"HIV-1 isolate 495 (protease changes: L10I K20R L23I E35D M36I M46I F53L I54V D60E L63P A71V I84V L90M I93L, study 145)",9.4,306,187,56,28
"HIV-1 isolate 522 (protease changes: I15V M36I R41K L63P E65D K70R, study 116)",1.1,1.1,1.4,1.1,1.1
"HIV-1 isolate 546 (protease changes: L10V L23I M36I M46L I54V I62V L63P A71V V82A I84V L90M I93L, study 145)",6.1,41,63,18,26
"HIV-1 isolate 550 (protease changes: L10S T12M I13V K14R G17E K20I E34K M36I Q61N I62M L63S C67E H69K V77I L89M, study 114)",0.7,0.8,0.6,0.6,0.7
"HIV-1 isolate 581 (protease changes: I15V M36I R41K L63P E65D K70R, study 109)",0.6,0.6,0.7,0.8,0.6
"HIV-1 isolate 590 (protease changes: T12S I15V G16E L19I M36L L63T H69K L89M I93L, study 114)",0.8,0.6,0.7,1.3,0.4
"HIV-1 isolate 604 (protease changes: I13V K14R K20I M36I R41K L63S H69K P79S T80P L89M, study 114)",0.4,0.6,0.3,0.5,0.4
"HIV-1 isolate 634 (protease changes: M46L I54V I62V I64V V82A, study 109)",2.7,0.5,12,4.1,6.3
"HIV-1 isolate 668 (protease changes: L10I I13V G16A Q18H N37D M46I I54V Q61H I62V L63P A71L I72T L76V V77I V82A N88G L90M I93L, study 8)",6.8,0.4,26.6,8.5,78.7
"HIV-1 isolate 1027 (protease changes: L10I K14R L33F E35D M36L N37D K43T G48V I54V I62V L63P A71I I72K V82A I84V L90M I93L, study 15)",102,–,400,113,122
